Biological target: human ACE2 (angiotensin-converting enzyme 2) (human) (UniProt Q9BYF1)
Assay: BLI

In the case of “sCoV-RBD (RBD of the SARS-CoV spike fused with a human IgG1 Fc fragment) (from UniProt P59594 306-527) (Fc fusion)”, the Kd is reported as 1.11 nM, the koff is reported as 0.000133 s⁻¹ and the kon is reported as 120000 M⁻¹ s⁻¹.
